Anti-infective test results gathered from many reports (values: NIAID ChemDB through PubChem).

Shared fields: whole-cell or culture tests; organism: Mycobacterium tuberculosis

ECn is the concentration giving n% inhibition of infection, replication or growth.

structure	tested at	endpoint	strain	read by	cell line	result
O=C1CSC(c2ccccc2Cl)N1C(=O)NCCCN1c2ccccc2Sc2ccccc21	25 µg/mL	inhibition	H37Rv	agar		30%
COc1ccc(N=Nc2c(O)c3cc(Cl)ccc3[nH]c2=O)c(C)c1	6.25 µg/mL	inhibition	H37Rv	resazurin		12%
CC(=O)Nc1ccc(OCC(=O)NN2C(=O)C(C)SC2c2ccco2)cc1		EC50	H37Rv			>12.5 µg/mL
CCOc1ccc2c(c1)[n+]([O-])c(S(=O)(=O)c1ccc(C)cc1)c(N)[n+]2[O-]		MIC	PAS-R			>12.5 µg/mL
CCOC(=O)C1=C(C)N(c2ccc(Cl)cc2)C(C)=C(C(=O)OCC)C1c1ccc(-c2ccc(F)c(Cl)c2)o1	6.25 µg/mL	inhibition	H37Rv	BACTEC / radiometric		12%
O=C1NC(=S)N/C1=C/c1cccc(Oc2ccccc2)c1	6.25 µg/mL	inhibition	H37Rv	BACTEC		78%
O=C(/N=C/c1cccc(Cl)c1)NCCCN1c2ccccc2Sc2ccccc21	25 µg/mL	inhibition	H37Rv	agar		27%
O=C1NC(=S)N/C1=C/c1ccc(Cl)cc1Cl		EC50	H37Rv	BACTEC		>6.25 µg/mL
Cn1c(NNc2nc(Nc3ccccn3)nc(Nc3ccccn3)n2)nc(-c2ccc(Cl)cc2)c(C#N)c1=O	12.5 µg/mL	inhibition	H37Rv			0%
CCOc1ccc(/C=C2/NC(=S)NC2=O)cc1		EC50	H37Rv	BACTEC		<6.25 µg/mL
COC(=O)C1=C(C)N(c2ccc(C)cc2)C(C)=C(C(=O)OC)C1c1ccc(-c2ccc(F)c(Cl)c2)o1	6.25 µg/mL	inhibition	H37Rv	BACTEC / radiometric		9%
O=c1[nH]c2c(Cl)cccc2c(O)c1N=Nc1ccccc1		MIC	H37Rv	resazurin		<6.25 µg/mL
COC(=O)CSC(=S)Nc1nnc(NC(=S)SCC(=O)OC)n1C(=S)SCC(=O)OC		MIC bound	H37Rv	resazurin		>6.25 µg/mL
COc1ccc(/C=N/NC(=O)COc2ccc(NC(C)=O)cc2)cc1		EC50	H37Rv			>12.5 µg/mL
Cc1cnc2cc(Cl)ccc2c1NCCNCCO	6.25 µg/mL	inhibition	H37Rv			12%
Cn1c2ccccc2c2cc(C=NNc3nc(-c4ccc(Br)cc4)cs3)ccc21		MIC	H37Rv	fluorescence		>200 µM
O=C(/N=C/c1ccc(O)cc1)NCCCN1c2ccccc2Sc2ccccc21	50 µg/mL	inhibition	H37Rv	agar		50%
CC(C)c1ccc(/C=C2/NC(=S)NC2=O)cc1	6.25 µg/mL	inhibition	H37Rv	BACTEC		89%
Cc1csc(NC(=O)c2cc(Br)ccc2O)n1		MIC	My 331/88			125 µM
COc1ccccc1/C=C1/SC(c2ccccc2OC)N(C(=O)NCCCN2c3ccccc3Sc3ccccc32)C1=O	25 µg/mL	inhibition	H37Rv	agar		31%
O=C1NC(=S)N/C1=C/c1ccc([N+](=O)[O-])cc1	6.25 µg/mL	inhibition	H37Rv	BACTEC		58%
O=c1[nH]c2c([N+](=O)[O-])cccc2c(O)c1N=Nc1ccccc1		MIC	H37Rv	resazurin		<6.25 µg/mL
COc1cc2cc(c1Cl)N(C)C(=O)CC(OC(=O)C(C)C)[C@]1(C)O[C@@H]1[C@@H](C)[C@H]1C[C@](O)(NC(=O)O1)[C@@H](OC)/C=C/C=C(\C)C2		MIC	H37Rv	BACTEC		≥12.5 µg/mL
COc1ccc(N=Nc2c(O)c3ccc(Cl)c(Cl)c3[nH]c2=O)cc1	6.25 µg/mL	inhibition	H37Rv	resazurin		14%
Cc1ccc(Nc2nc(NNc3nc(-c4ccccc4)c(C#N)c(=O)n3C)nc(Nc3ccc(C)cc3C)n2)c(C)c1		EC50	H37Rv		VERO	<12.5 µg/mL
O=c1[nH]c2c([N+](=O)[O-])cccc2c(O)c1N=Nc1ccc(Cl)c(Cl)c1	6.25 µg/mL	inhibition	H37Rv	resazurin		79%
Cc1ccc(C(=O)Nc2nc3ccccc3s2)c(O)c1		MIC	My 331/88			8 µM
CCOC(=O)CC(NC(C)CCCC(C)C)[C@H]1O[C@@H]2OC(C)(C)O[C@@H]2[C@H]1OCc1ccccc1		MIC	H37Ra			>25 µg/mL
Cc1ccc(S(=O)(=O)NC(=O)OCCc2c3ccccc3nc3ccccc23)cc1	12.5 µg/mL	inhibition	H37Rv	BACTEC		99%
O=c1[nH]c2ccc(Cl)cc2c(O)c1N=Nc1ccc(Cl)c(Cl)c1	6.25 µg/mL	inhibition	H37Rv	resazurin		95%
Cn1c2ccccc2c2cc(C=NNc3nc(-c4cc5cc(Br)ccc5oc4=O)cs3)ccc21		EC50	H37Rv	fluorescence		>200 µM
O=C1NC(=S)N/C1=C/c1ccc2c(c1)OCO2	6.25 µg/mL	inhibition	H37Rv	BACTEC		0%
O=C(NCCCN1c2ccccc2Sc2ccccc21)N1C(=O)/C(=C\c2ccccc2Cl)SC1c1ccccc1Cl	25 µg/mL	inhibition	H37Rv	agar		32%
Oc1cc(CCCc2ccccc2)ccc1Oc1ccc(Cl)cc1Cl		MIC	Clinical isolate 12081			100 µM
Cn1c(NNc2nc(Nc3cccc(Cl)c3)nc(Nc3cccc(Cl)c3)n2)nc(-c2ccc(Cl)cc2)c(C#N)c1=O	12.5 µg/mL	inhibition	H37Rv			0%
Oc1cc(CCc2ccccc2)ccc1Oc1ccc(Cl)cc1Cl		MIC	Clinical isolate 12081			210 µM
COc1cccc(Nc2nc(NNc3nc(-c4ccc(Cl)cc4)c(C#N)c(=O)n3C)nc(Nc3cccc(OC)c3)n2)c1	12.5 µg/mL	inhibition	H37Rv			21%
COc1cc(-c2[o+]c3cc(O)cc(O[C@@H]4O[C@H](CO)[C@@H](O)C(O)[C@H]4O)c3cc2O[C@H]2O[C@@H](CO)[C@H](O)[C@@H](O)[C@@H]2O)cc(OC)c1O		MIC bound	H37Rv	BACTEC		>12.5 µg/mL
Cn1c(NNc2nc(Nc3cc(Cl)cc(Cl)c3)nc(Nc3cc(Cl)cc(Cl)c3)n2)nc(-c2ccccc2)c(C#N)c1=O	12.5 µg/mL	inhibition	H37Rv		VERO	98%
CCOC(=O)CC(N)[C@H]1O[C@@H]2OC(C)(C)O[C@@H]2[C@H]1OC		MIC	H37Rv			>100 µg/mL
CC[C@@]1(O)C[C@@H](OC2CC(N(C)C)C(O)C(C)O2)c2c(O)c3c(c(O)c2[C@@H]1OC1CC(N(C)C)C(O)C(C)O1)C(=O)c1cccc(O)c1C3=O	12.5 µg/mL	inhibition	H37Rv	BACTEC		56%
CC1COc2c(N3CCN(C)CC3)c(F)cc3c(=O)c(C(=O)O)cn1c23		MIC	001-005 (DRUG-SUS)			1 µg/mL
Cc1ccc(C(=O)Nc2cncs2)c(O)c1		MIC	My 331/88			16 µM
CCC(C)C(NC(=O)C1N=C(c2csc(C(O)Cc3ccccc3)n2)OC1C)C(=O)OC	12.5 µg/mL	inhibition	H37Rv	BACTEC		12%
CO[C@H]1/C=C/O[C@@]2(C)Oc3c(C)c(O)c4c(O)c(c(/C=N/N5CCN(C6CCCC6)CC5)c(O)c4c3C2=O)NC(=O)/C(C)=C\C=C\[C@H](C)[C@H](O)[C@@H](C)[C@@H](O)[C@@H](C)[C@H](OC(C)=O)[C@@H]1C		MIC	13267			0.02 µg/mL
CCCCCCCCCCCCNC(CC(=O)O)[C@H]1O[C@@H]2OC(C)(C)O[C@@H]2[C@H]1OC		MIC	H37Rv			>50 µg/mL
CCOC(=O)C1=C(C)N(c2ccc(C)cc2)C(C)=C(C(=O)OCC)C1c1ccc(-c2ccc(F)c(Cl)c2)o1	6.25 µg/mL	inhibition	H37Rv	BACTEC / radiometric		17%
N=Nc1c(O)n(O)c2ccccc12		MIC	H37Rv	BACTEC		≥12.8 µg/mL
CCOC(=O)C1=C(C)N(c2ccccc2)C(C)=C(C(=O)OCC)C1c1ccc(-c2ccc(F)c(Cl)c2)o1	6.25 µg/mL	inhibition	H37Rv	BACTEC / radiometric		15%
O=C(NCCCN1c2ccccc2Sc2ccccc21)N1C(=O)/C(=C\c2cccc(Cl)c2)SC1c1cccc(Cl)c1	50 µg/mL	inhibition	H37Rv	agar		80%
CO[C@@H]1[C@H]2OC(C)(C)O[C@H]2O[C@@H]1C(N)CC(=O)O		MIC	H37Ra			>100 µg/mL
COC1CCC(OC2CC(C3(C)CCC4(CC(O)C(C)C(C(C)/C=C(\C)C(=O)C(C)CC(C)C(=O)O)O4)O3)OC3(OC(C4OC(O)(CO)C(C)CC4C)CC3C)C2C)OC1C		MIC	H37Rv	BACTEC		4 µg/mL
CC(=O)Nc1ccc(OCC(=O)N/N=C/c2ccccc2[N+](=O)[O-])cc1	12.5 µg/mL	inhibition	H37Rv			9%
CN1c2ccccc2C(=O)Nc2cnc(Cl)nc21		MIC bound	H37Rv	BACTEC		>12.5 µg/mL
O=C(Nc1cnccn1)c1ccccc1O		MIC	My 331/88			125 µM
C/C(=C1\NC(=S)NC1=O)c1ccc(Cl)cc1		EC50	H37Rv	BACTEC		>6.25 µg/mL
CC(=O)c1c(O)cc2c3c1OC(C)(C)C1CCC(C)(CC31)O2		MIC bound	H37Rv	BACTEC		>12.5 µg/mL
Cn1c2ccccc2c2cc(C=NNc3nc(-c4cccc(F)c4)cs3)ccc21		MIC	H37Rv	fluorescence		>200 µM
Cc1ccc(C(=O)Nc2nc(C)cc(C)n2)c(O)c1		MIC	My 331/88			62.5 µM
O=C1CSC(c2cccc([N+](=O)[O-])c2)N1C(=O)NCCCN1c2ccccc2Sc2ccccc21	50 µg/mL	inhibition	H37Rv	agar		68%
Cn1c(NNc2nc(NCc3ccco3)nc(NCc3ccco3)n2)nc(-c2ccc(Cl)cc2)c(C#N)c1=O		EC50	H37Rv			>12.5 µg/mL
CC(=O)Nc1ccc(OCC(=O)NN2C(=O)C(C)SC2c2ccccc2Cl)cc1	12.5 µg/mL	inhibition	H37Rv			0%
CCOC(=O)CC(N)[C@H]1O[C@@H]2OC(C)(C)O[C@@H]2[C@H]1OCc1ccccc1		MIC	H37Rv			>100 µg/mL
Cc1ccc(C)c(N2C(=O)C(=O)C(c3nc4ccccc4s3)/C(=N/NC(=O)NN)C2=O)c1	6.25 µg/mL	inhibition	H37Rv	resazurin		16%
Cn1c2ccccc2c2cc(C=NNc3nc(-c4ccc(F)cc4)cs3)ccc21		MIC	H37Rv	fluorescence		>200 µM
CCOC(=O)C1(n2[nH]c(=O)n(-c3ccccc3)c2=O)CC(C)(C)OC1=O		MIC bound	H37Rv	BACTEC		>12.5 µg/mL
Cn1c2ccccc2c2cc(C=NNc3nc(-c4cccs4)cs3)ccc21		MIC	H37Rv	fluorescence		>200 µM
CC(=O)c1cc2c(cc1O)oc1c(C)ccc(C)c12	12.5 µg/mL	inhibition	H37Rv	BACTEC		-25%
Cn1c2ccccc2c2cc(C=NNc3nc(-c4ccc([N+](=O)[O-])cc4)cs3)ccc21		EC90	H37Rv	fluorescence		>200 µM
Cc1ccc(S(=O)(=O)N2CCn3ncc(C#N)c32)cc1	12.5 µg/mL	inhibition	H37Rv	BACTEC		0%
COC(=O)C1=C(C)N(c2ccc(F)cc2)C(C)=C(C(=O)OC)C1c1ccc(-c2ccc(F)c(Cl)c2)o1	6.25 µg/mL	inhibition	H37Rv	BACTEC / radiometric		63%
OCc1cc2c([nH]c3ccccc32)c(C(O)CO)n1	12.5 µg/mL	inhibition	H37Rv	BACTEC		11%
CCCCCCCCCCCCNC(CC(=O)OCC)[C@H]1O[C@@H]2OC(C)(C)O[C@@H]2[C@H]1OC		MIC	H37Ra			>25 µg/mL
COc1ccc(C(=O)Nc2nccc(C)n2)c(O)c1		MIC	My 331/88			32 µM
CCCCCCCCCCCCNC(CC(=O)OCC)[C@H]1O[C@@H]2OC(C)(C)O[C@@H]2[C@H]1OCc1ccccc1		MIC	H37Ra			>25 µg/mL
O=C1NC(=S)N/C1=C/c1cccc(OCc2ccc(Cl)cc2Cl)c1		EC50	H37Rv	BACTEC		<6.25 µg/mL
COc1ccc(C(=O)Nc2cc(C)on2)c(O)c1		MIC	My 331/88			125 µM
CCOC(=O)C1=C(C)O/C(=C\c2cccc(Cl)c2)C1=O	12.5 µg/mL	inhibition	H37Rv	BACTEC		11%
Cn1c(NNc2nc(NCc3ccccc3)nc(NCc3ccccc3)n2)nc(-c2ccc(Cl)cc2)c(C#N)c1=O		MIC	H37Rv			>12.5 µg/mL
Cc1[nH]nc(-c2cccnc2)c1N=NN1CCOCC1		MIC bound	H37Rv	resazurin		>6.25 µg/mL
C=CCOc1ccc(/C=C2/NC(=S)NC2=O)cc1		EC50	H37Rv	BACTEC		<6.25 µg/mL
C=C(C)C(=O)OC1CC2(C)OC(=CC2=O)C(C)CC2OC(=O)C(=C)C12		MIC	H37Rv	BACTEC		≥12.5 µg/mL
CC(=O)Nc1ccc(OCC(=O)NN2C(=O)C(C)SC2c2cccc([N+](=O)[O-])c2)cc1	12.5 µg/mL	inhibition	H37Rv			27%

Repeating the first 8 entries:

O=C1CSC(c2ccccc2Cl)N1C(=O)NCCCN1c2ccccc2Sc2ccccc21 ; tested at: 25 µg/mL ; endpoint: inhibition ; strain: H37Rv ; read by: agar ; result: 30%
COc1ccc(N=Nc2c(O)c3cc(Cl)ccc3[nH]c2=O)c(C)c1 ; tested at: 6.25 µg/mL ; endpoint: inhibition ; strain: H37Rv ; read by: resazurin ; result: 12%
CC(=O)Nc1ccc(OCC(=O)NN2C(=O)C(C)SC2c2ccco2)cc1 ; endpoint: EC50 ; strain: H37Rv ; result: >12.5 µg/mL
CCOc1ccc2c(c1)[n+]([O-])c(S(=O)(=O)c1ccc(C)cc1)c(N)[n+]2[O-] ; endpoint: MIC ; strain: PAS-R ; result: >12.5 µg/mL
CCOC(=O)C1=C(C)N(c2ccc(Cl)cc2)C(C)=C(C(=O)OCC)C1c1ccc(-c2ccc(F)c(Cl)c2)o1 ; tested at: 6.25 µg/mL ; endpoint: inhibition ; strain: H37Rv ; read by: BACTEC / radiometric ; result: 12%
O=C1NC(=S)N/C1=C/c1cccc(Oc2ccccc2)c1 ; tested at: 6.25 µg/mL ; endpoint: inhibition ; strain: H37Rv ; read by: BACTEC ; result: 78%
O=C(/N=C/c1cccc(Cl)c1)NCCCN1c2ccccc2Sc2ccccc21 ; tested at: 25 µg/mL ; endpoint: inhibition ; strain: H37Rv ; read by: agar ; result: 27%
O=C1NC(=S)N/C1=C/c1ccc(Cl)cc1Cl ; endpoint: EC50 ; strain: H37Rv ; read by: BACTEC ; result: >6.25 µg/mL

Rows are shuffled and stem from different studies. MIC bound comes from a single tested concentration. Percent inhibition refers to the dose given; in toxicity tests it is the harm to the cells. An empty or dashed field is not shown.